{"source": "paper PMC5608353", "about": "(PLoS ONE, 2017)", "key": {"[1]": {"system": "human erythrocytes, epidermal keratinocytes, A549 cells, murine L929 fibroblasts, porcine intestinal epithelial cell line ZYMSIEC02", "details": "cited from earlier work"}, "C. perfringens JT1": {"system": "C. perfringens JT1", "details": "JT1, 18 h"}, "C. perfringens CVCC 1137": {"system": "C. perfringens CVCC 1137", "details": "CVCC 1137, 18 h"}, "C. perfringens JZ10": {"system": "C. perfringens JZ10", "details": "JZ10, 18 h"}, "C. perfringens CVCC 46 [2]": {"system": "C. perfringens CVCC 46", "details": "CVCC 46, 18 h"}, "C. perfringens CVCC 46 [3]": {"system": "C. perfringens CVCC 46", "assay_type": "cell-based, Clostridium perfringens type A"}, "[4]": {"system": "C. perfringens genomic DNA", "assay_type": "binding, Clostridium perfringens", "details": "25°C"}, "C. perfringens CVCC 46 [5]": {"system": "C. perfringens CVCC 46"}, "C. perfringens JC2": {"system": "C. perfringens JC2", "details": "JC2, 18 h"}, "C. perfringens CVCC 51": {"system": "C. perfringens CVCC 51", "details": "CVCC 51, 18 h"}, "C. perfringens CVCC 46 [6]": {"system": "C. perfringens CVCC 46", "assay_type": "cell-based, Clostridium perfringens type A", "remark": "listed apart in the source"}, "C. perfringens CVCC 46 [7]": {"system": "C. perfringens CVCC 46", "assay_type": "cell-based, Clostridium perfringens type A", "remark": "listed apart in the source"}, "[8]": {"system": "C. perfringens CVCC 46 genomic DNA", "assay_type": "binding, Clostridium perfringens type A"}}, "note": "Where “and” joins values, the source holds several entries; their conditions need not be identical. Equal values may be shown once.", "data": [{"smiles": "CC[C@H](C)[C@@H]1NC(=O)[C@H](CO)NC(=O)[C@H](CCCCN)NC(=O)[C@@H]2CSSC[C@@H](C(=O)N[C@@H](Cc3ccc(O)cc3)C(=O)O)NC(=O)[C@H](CCCCN)NC(=O)[C@@H]3CSSC[C@H](NC(=O)[C@H](CCCNC(=N)N)NC(=O)[C@H](CC(C)C)NC(=O)[C@H](CC(=O)O)NC(=O)[C@H](CC(=O)O)NC(=O)[C@H](CCC(=O)O)NC(=O)[C@H](CC(N)=O)NC(=O)[C@H](Cc4c[nH]c5ccccc45)NC(=O)[C@@H]4CCCN4C(=O)CNC(=O)[C@H](CC(N)=O)NC(=O)[C@@H](NC(=O)CNC(=O)[C@H](Cc4ccccc4)NC(=O)CN)CSSC[C@H](NC(=O)[C@H](Cc4ccc(O)cc4)NC(=O)CNC(=O)CNC(=O)[C@H](CCCCN)NC(=O)[C@H](Cc4ccc(O)cc4)NC(=O)CNC(=O)[C@H](CCCCN)NC1=O)C(=O)N[C@@H](C)C(=O)N[C@@H](CCCCN)C(=O)NCC(=O)NCC(=O)N[C@@H](Cc1ccccc1)C(=O)N[C@@H](C(C)C)C(=O)N3)C(=O)N[C@@H](Cc1c[nH]cn1)C(=O)N[C@@H](CC(N)=O)C(=O)N[C@@H](Cc1c[nH]cn1)C(=O)N2", "note": "[NZ2114]", "values": [{"measurement": "Hemolysis / cytotoxicity", "setting": "[1]", "value": "non-hemolytic or non-cytotoxic"}, {"measurement": "MIC", "setting": "C. perfringens JT1", "value": 0.46, "unit": "µM"}, {"measurement": "MIC", "setting": "C. perfringens CVCC 1137", "value": 1.81, "unit": "µM"}, {"measurement": "MIC", "setting": "C. perfringens JZ10", "value": ">14.5", "unit": "µM"}, {"measurement": "MBC", "setting": "C. perfringens CVCC 46 [2]", "value": 0.91, "unit": "µM"}, {"measurement": "MIC", "setting": "C. perfringens CVCC 46 [2]", "value": 0.91, "unit": "µM"}, {"measurement": "Ratio of cells in phase I", "setting": "C. perfringens CVCC 46 [3]", "value": "9.08% and 17.32%"}, {"measurement": "Change of CD spectrum of genomic DNA", "setting": "[4]", "value": "DNA ellipticity intensity decreased"}, {"measurement": "Shift of CD spectrum of genomic DNA", "setting": "[4]", "value": "slight redshift"}, {"measurement": "MICa (MIC of drug used alone)", "setting": "C. perfringens CVCC 46 [5]", "value": 0.91, "unit": "µM"}, {"measurement": "FICI, range over the tested antibiotics", "setting": "C. perfringens CVCC 46 [5]; CVCC 46", "value": "0.5~0.75"}, {"measurement": "MIC", "setting": "C. perfringens JC2", "value": ">14.5", "unit": "µM"}, {"measurement": "MIC", "setting": "C. perfringens CVCC 51", "value": 0.91, "unit": "µM"}, {"measurement": "PI-stained percentages of cells, range over time", "setting": "C. perfringens CVCC 46 [6]", "value": "41.6~97.9%"}, {"measurement": "Bacterial regrowth in time-kill curve", "setting": "C. perfringens CVCC 46 [7]", "value": "no bacterial regrowth"}, {"measurement": "Time to 99.9% reduction of bacterial counts", "setting": "C. perfringens CVCC 46 [7]", "value": "≤ 1", "unit": "h"}, {"measurement": "Binding to genomic DNA (gel retardation)", "setting": "[8]", "value": "interacted with MDR C. perfringens CVCC 46 genomic DNA"}, {"measurement": "Peptide/DNA mass ratio for complete retardation of DNA migration", "setting": "[8]", "value": "> 10.0"}]}]}
